Anti-infective test results gathered from many reports (values: NIAID ChemDB through PubChem).

Common to all: toxicity to cultured cells; read-out: CC50

Lines come from different laboratories, so protocols vary. CCn: concentration that lowers growth or viability of the cells by n%. Blank or dashed fields: not listed here.

SMILES | cell line | read by | result
CC(=O)SCCOP(=O)(OCCSC(C)=O)OC[C@H]1O[C@@H](n2cc(C)c(=O)[nH]c2=O)C[C@@H]1N=[N+]=[N-] | MOLT-4/8 | MTT | 37.1 µM
Cc1ccnc2c1NC(=O)c1cccnc1N2C1CC1 | 293T |  | >10 µM
Nc1nc(N)c2ncn(/C=C3/C[C@@H]3CO)c2n1 | DAUDI |  | 38 µM
Cc1ccc(C(=O)NC2N=C(c3ccccc3)c3ccccc3NC2=O)o1 | HEP-2 |  | 2 µM
COc1cc(-c2ccccc2)c(O)c(OC)c1O | HT-29 | sulforhodamine / absorbance | >50 µM
O=c1[nH]c(=S)n([C@@H]2O[C@H](CO)[C@@H](O)[C@@H]2O)cc1Cl | MRC-5 |  | >680 µM
Cc1cn([C@H]2C[C@H](N=[N+]=[N-])[C@@H](CO)O2)c(=O)[nH]c1=O | PBMC | MTT | 450 µg/mL
Cc1cn([C@H]2C[C@H](N=[N+]=[N-])[C@@H](CO)O2)c(=O)[nH]c1=O | MOLT-4/8(r)AZT(250) | MTT | >2500 µM
COc1cc2ccccc2cc1C(=O)NC1N=C(c2ccccc2)c2ccccc2NC1=O | HEP-2 |  | 6.7 µM
O=c1c2ccccc2ccc2ccccc12 | HELA-H1 |  | >200 µM
CC(C)(C)[Si](C)(C)O[C@@H]1C[C@@H](/C=C/I)N2CCCC[C@H]12 | Human foreskin fibroblasts (HFF) | MTT | 34 µM
CC(C)=CC[C@H]1C[C@@]2(C[C@H]3CCC(C)(C)C=C3C)C(=O)[C@](C(=O)c3ccccc3)(C(=O)C3=C2OC(C)(C)CC3)C1(C)C | 1A2 | XTT / absorbance | >219 µM
Nc1nc2c(ncn2COCCO)c(=O)[nH]1 | E6SM |  | >400 µg/mL
COc1c(CC=C(C)C)c(O)cc2oc(=O)c(-c3ccc(O)cc3O)cc12 | Huh7.5 | WST | 69 µg/mL
C[C@H]1[C@H](O)C(=O)CC2[C@]3(C)CC[C@@]4(C)C5CC(C)(C)CC[C@]5(C)CC[C@]4(C)C3CC[C@@]21C | P-388 | sulforhodamine / absorbance | >50 µM
NC(=NC1CCCCC1)c1ccc(-c2ccc(-c3ccc(C(N)=NC4CCCCC4)cc3)o2)cc1 | A2780 ovarian carcinoma |  | 4.8 µM
CC(C)C[C@@H]1NC(=O)[C@H](Cc2c[nH]c3ccccc23)NC(=O)[C@@H](CCCCN)NC(=O)[C@H](CO)NC(=O)[C@H](C(C)C)NC(=O)[C@@H](CC(C)C)NC1=O | Colorectal carcinoma | MTT | >30 µM
Nc1ncnc2c1ncn2C[C@@H](CO)OCP(=O)(O)O | TR-14 |  | >50 µg/mL
CC(C)C[C@@H]1NC(=O)[C@H](Cc2c[nH]c3ccccc23)NC(=O)[C@@H](CCCCN)NC(=O)CNC(=O)[C@H](C(C)C)NC(=O)[C@@H](CC(C)C)NC1=O | Lung carcinoma cells | MTT | >30 µM
Nc1ccn([C@H]2CC[C@@H](CO)O2)c(=O)n1 | CFU-GM |  | 0.7 µM
O=C(O)c1ccc(NS(=O)(=O)c2ccc(NC3=CC(=O)c4ccccc4C3=O)cc2)cc1 | P3HR-1 |  | >100 µg/mL
NC12CC3CC(CC(C3)C1)C2 | MDCK cells | MTS | >500 µM
O=c1[nH]c(=S)n([C@H]2C[C@H](O)[C@@H](CO)O2)cc1I | RPMI8226 |  | 212 µM
CC(N)C12CC3CC(CC(C3)C1)C2 | MDCK cells | MTS | 258 µM
O=C(O)C(=O)CC(=O)c1cc(OCc2ccccc2)cc(OCc2ccccc2)c1 | HuT-78 |  | >50 µM
COc1cc(-c2ccccc2)c(OC)c(OC)c1O | ASK (Atlantic salmon kidney) | sulforhodamine / absorbance | >50 µM
CCc1nc(N)nc(N)c1-c1ccc(Cl)cc1 | Human foreskin fibroblasts (HFF) | MTT | 44 µM
O=c1[nH]c(=O)n([C@H]2C[C@H](O)[C@@H](CO)O2)cc1/C=C/Br | U138-MG |  | 175 µg/mL
COc1c(CC=C(C)C)c(O)cc2oc(=O)c3c(c12)Cc1cc(O)ccc1-3 | Huh7.5 | WST | 35.5 µg/mL
O=C(NC1N=C(c2ccccc2)c2ccccc2NC1=O)c1ccccc1Cl | VERO |  | 2 µM
O=c1ccn([C@H]2C[C@H](O)[C@@H](CO)O2)c(=S)[nH]1 | MRC-5 |  | >412 µM
Nc1ccn([C@H]2CC[C@@H](CO)O2)c(=O)n1 | 2.2.15 |  | 10 µM
CC1(C)CC[C@]2(C(=O)O)CC[C@]3(C)C(=CC[C@@H]4[C@@]5(C)CC[C@H](O)C(C)(C)[C@@H]5CC[C@]43C)[C@@H]2C1 | 9-13 cells | MTT | 78.6 µg/mL
O=C(O)c1cc2oc3ccccc3c2cc1O | HELA-H1 |  | 150 µM
O=c1c(-c2ccc(O)cc2)coc2cc(O)ccc12 | HEP-2 |  | 2.65 µg/mL
C[C@@H]1[C@H](O)[C@@H](C)/C=C/C=C/CC/C=C/C=C/C=C/C=C/C(O[C@H]2O[C@H](C)[C@@H](O)[C@H](N)[C@@H]2O)CC2O[C@](O)(CC(O)C(O)CCC(O)CC(O)CC(O)CC(=O)O[C@H]1C)CC(O)C2C(=O)O | Valsa mali |  | 12.3 µM
CO[C@H]1/C=C/O[C@@]2(C)Oc3c(C)c(O)c4c(O)c(c(/C=N/N5CCN(C)CC5)c(O)c4c3C2=O)NC(=O)/C(C)=C\C=C\[C@H](C)[C@H](O)[C@@H](C)[C@@H](O)[C@@H](C)[C@H](OC(C)=O)[C@@H]1C | Colorectal carcinoma | MTT | >30 µM
Nc1nc(=O)n(CC#CCO)cc1F | 2.2.15 |  | >100 µM
N#Cc1cc(NC(=O)[C@H]2CCN(C(=O)C(=O)NC3(c4cn[nH]n4)CC(F)(F)C3)C2)ccc1F | HepG2.117 | luminescence | >50 µM
COc1ccc(CNC(=O)NC2N=C(c3ccccc3)c3ccccc3NC2=O)cc1 | HEP-2 |  | 4 µM
Nc1nc2c(ncn2/C=C2/C[C@H]2CO)c(=O)[nH]1 | DAUDI |  | >214 µM
O=C(NC1N=C(c2ccccc2)c2ccccc2NC1=O)c1cccc2cc[nH]c12 | HEP-2 |  | 8.4 µM
O=C(O)/C=C/c1ccc(O)c(O)c1 | RC-37 | neutral red | 150 µg/mL
COCO[C@@H]1C[C@@H](C(=O)OC)N2CCCC[C@@H]12 | Human foreskin fibroblasts (HFF) | MTT | 291 µM
CC1Oc2cc(O)c3c(=O)c4ccc(O)c(O)c4oc3c2C1(C)C | P-388 | sulforhodamine / absorbance | 4.66 µM
C=CCC1[C@H](O[Si](C)(C)C(C)(C)C)C[C@@H](C(=O)OC)N1CC=C | Human foreskin fibroblasts (HFF) | MTT | 54 µM
C/C=C1\C(=O)O[C@]23C=C[C@@H]4C(C(=O)OC)=CO[C@H](O[C@@H]12)[C@@H]43 | J774G8 | MTT | 5.99 µg/mL
COc1cc(O)cc2oc3cc(O)c(O)cc3c(=O)c12 | HT-29 | sulforhodamine / absorbance | >50 µM
C#C[C@@H]1C[C@@H](O)[C@H]2CCCCN12 | Human foreskin fibroblasts (HFF) | MTT | 84 µM
Cc1ccc(NC(=O)NC(C)CCc2ccccc2)cc1Cl | CCL-81 | MTT | >400 µg/mL
Nc1nc(Cl)c2ncn(/C=C3/C[C@@H]3CO)c2n1 | DAUDI |  | 15 µM
CC1(C)[C@@H](O[C@@H]2O[C@H](C(=O)O)[C@@H](O)[C@H](O)[C@H]2O)CC[C@]2(C)[C@H]3C(=O)C=C4[C@@H]5C[C@@](C)(C(=O)O)CC[C@]5(C)CC[C@@]4(C)[C@]3(C)CC[C@@H]12 | Huh7.5 | WST | >30 µg/mL
Cc1cn([C@H]2C[C@H](N=[N+]=[N-])[C@@H](COP(=O)(OCCSC(=O)C(C)C)OCCSC(=O)C(C)C)O2)c(=O)[nH]c1=O | MOLT-4/8 | MTT | 48.5 µM

Repeating the final 5 entries:

SMILES,cell line,read by,result
C#C[C@@H]1C[C@@H](O)[C@H]2CCCCN12,Human foreskin fibroblasts (HFF),MTT,84 µM
Cc1ccc(NC(=O)NC(C)CCc2ccccc2)cc1Cl,CCL-81,MTT,>400 µg/mL
Nc1nc(Cl)c2ncn(/C=C3/C[C@@H]3CO)c2n1,DAUDI,,15 µM
CC1(C)[C@@H](O[C@@H]2O[C@H](C(=O)O)[C@@H](O)[C@H](O)[C@H]2O)CC[C@]2(C)[C@H]3C(=O)C=C4[C@@H]5C[C@@](C)(C(=O)O)CC[C@]5(C)CC[C@@]4(C)[C@]3(C)CC[C@@H]12,Huh7.5,WST,>30 µg/mL
Cc1cn([C@H]2C[C@H](N=[N+]=[N-])[C@@H](COP(=O)(OCCSC(=O)C(C)C)OCCSC(=O)C(C)C)O2)c(=O)[nH]c1=O,MOLT-4/8,MTT,48.5 µM